Laboratory results: PMC12172621 (ACS chemical neuroscience, 2024)

Amino acid sequences for entries named in this document (tags omitted).
UniProt Q5BJF2, whole entry, species assumed: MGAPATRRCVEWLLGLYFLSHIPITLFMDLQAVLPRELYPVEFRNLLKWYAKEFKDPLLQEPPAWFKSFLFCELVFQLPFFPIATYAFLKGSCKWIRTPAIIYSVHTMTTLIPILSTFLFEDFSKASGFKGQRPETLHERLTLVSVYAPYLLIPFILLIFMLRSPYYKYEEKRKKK

Target: sigma-2 receptor (σ2R, Tmem97) (Homo sapiens, UniProt Q5BJF2)
Assay type: binding
Details: read-out: Kiσ2R

`COc1cccc2c1CCCC2CCCN1CCN(C2CCCCC2)CC1` (stereo not shown) [PB-28] showed a Ki of 4 nM.
